This test addresses LecA (Pseudomonas aeruginosa, UniProt Q05097). Nature of the test: Isothermal titration calorimetry (ITC) of ligand binding to LecA. To be noted: 298 K; for TΔS: derived from ΔG = ΔH − TΔS; for TΔS / −ΔG / n (stoichiometry) / −ΔH: tested form: HCl; for −ΔG: derived from ΔG = −RT ln Kd; for Kd: duplicate, Tris buffer pH 7.5 with 5 or 10% DMSO, Z-isomers measured at PSS370, tested form: HCl; for n (stoichiometry): one site model. An excerpt:
The interaction of compounds 1–5 with LecA was characterized by ITC analysis for both the E- and Z-isomers. As the initial isomer state of the galactosyl azobenzenes is the E-form, ITC measurements made on E-isomers correspond to 100% purity of them. After 370 nm irradiation to induce the photoizomerisation process, a photostationary state is reached between E- and Z-isomers. For ITC measurements made on Z-isomers, the percentage of isomers is shown in the column Z/E (PSS370) of Table 1. Depending on the corresponding galactosyl azobenzenes, the Z-isomer is pure from 87 to 99%. Spectroscopy measurements were performed on ligand solution just before each experiment to check the efficiency of the isomerization, with results as indicated in Table 2.
Isothermal titration calorimetry: LecA was expressed and purified as previously described. All experiments were performed at 25 °C with an ITC200 isothermal titration calorimeter (Microcal-Malvern Panalytical, Grenoble, France). The lyophilized LecA protein was dissolved in a buffer composed of 20 mM Tris^.HCl (pH 7.5), 100 mM NaCl and 100 μM CaCl2 with 5% or 10% DMSO final. All compounds were first dissolved in DMSO then in same buffer for a final concentration of 5% or 10% DMSO. The 200 μL sample cell containing LecA (concentrations ranging from 200 to 300 μM) was subjected to injections of ligand solution: 20 injections of 2 μL (2–3 mM, depending on the ligand) at intervals of 120 s while stirring at 850 rpm. Control experiments were performed by repeating the same protocol, but injecting the ligand into buffer solution. The supplied software Origin 7 or MicroCal PEAQ-ITC was used to fit the experimental data to a theoretical titration curve allowing the determination of affinity (i.e., dissociation constant, Kd), binding enthalpy (ΔH), and stoichiometry (n). Values for free energy change (ΔG) and entropy contributions (TΔS) were derived from the equation ΔG = ΔH − TΔS = − RT ln Kd (with T = 298.15 K and R = 8.314 J mol^−1K^−1).

Amino acid sequences for entries named in this document (tags omitted).
UniProt Q05097, whole entry: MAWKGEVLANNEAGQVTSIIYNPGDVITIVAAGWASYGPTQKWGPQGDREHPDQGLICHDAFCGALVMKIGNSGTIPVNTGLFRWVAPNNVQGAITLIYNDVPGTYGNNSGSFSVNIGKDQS

From publication PMC11228623, “Photoswitchable glycoligands targeting Pseudomonas aeruginosa LecA” (Beilstein Journal of Organic Chemistry, 2024) come the findings set out here.

Consider `NCCOc1ccc(/N=N\c2ccccc2S[C@@H]2O[C@H](CO)[C@H](O)[C@H](O)[C@H]2O)cc1`, for which the TΔS is -2.46 kcal/mol, the “−ΔG” value is 7.36 kcal/mol, the dissociation constant Kd amounted to 4.1 µM and the “n (stoichiometry)” value is on record as 0.96 ± 0.03. Also, the “−ΔH” value worked out at 9.82 ± 0.096 kcal/mol.

With `NCCOc1ccc(/N=N\c2ccc(O[C@@H]3O[C@H](CO)[C@H](O)[C@H](O)[C@H]3O)cc2)cc1`, the TΔS is -3.23 kcal/mol, the “−ΔG” value was determined as 6.64 kcal/mol, the Kd came to 13.6 µM and the “n (stoichiometry)” value came out at 1.04 ± 0.04. The “−ΔH” value came to 9.87 ± 0.12 kcal/mol.

With `NCCOc1ccc(/N=N\c2cccc(S[C@@H]3O[C@H](CO)[C@H](O)[C@H](O)[C@H]3O)c2)cc1`, the TΔS was -4.04 kcal/mol, the “−ΔG” value worked out at 7.22 kcal/mol, the Kd is 5.1 µM and the “n (stoichiometry)” value is 0.96 ± 0.02. The “−ΔH” value worked out at 11.3 ± 0.048 kcal/mol.

As for `NCCOc1ccc(/N=N\c2ccc(S[C@@H]3O[C@H](CO)[C@H](O)[C@H](O)[C@H]3O)cc2)cc1`, the TΔS is -4.47 kcal/mol, the “−ΔG” value turned out to be 7.34 kcal/mol, the Kd came out at 4.1 µM and the “−ΔH” value was determined as 11.8 ± 0.096 kcal/mol.

Regarding `NCCOc1cccc(/N=N\c2cccc(O[C@@H]3O[C@H](CO)[C@H](O)[C@H](O)[C@H]3O)c2)c1`, the TΔS is -3.73 kcal/mol, the “−ΔG” value was determined as 7.22 kcal/mol, the dissociation constant Kd is 5.1 µM and the “n (stoichiometry)” value amounted to 0.97 ± 0.04. Besides, the “−ΔH” value is 10.9 ± 0.14 kcal/mol.
